A mixed list of measured activities; the numbers were collected in NIAID ChemDB.

All rows: host cell toxicity; cells: MT-4; method: MTT; measure: CC50

CCn is the concentration with n% toxicity to the cells. Conditions beyond the fields shown may differ between rows.

SMILES,value
CC1=C(C(=O)Nc2ccc(F)c(F)c2)C2=NN=C(N)C2C(=O)N1,97.1 µg/mL
CCCc1c(Cc2ccccc2)n(COCC2CC=CCC2)c(=O)[nH]c1=O,34 µM
N#Cc1ccc(Nc2nc(Oc3ccc(-c4ccc(C#N)cc4)c(C(F)(F)F)c3)c3sccc3n2)cc1,26.5 µM
COc1ccc(CCN2C(=O)/C(=C\c3ccccc3Cl)N(CCc3ccc(OC)c(OC)c3)C2=S)cc1OC,19.5 µg/mL
O=C(O)c1cn(C2CC2)c2nc(N3CCN(c4ccccn4)CC3)ccc2c1=O,>8.32 µM
Fc1ccccc1-c1nnc2sc(CC34CC5CC(CC(C5)C3)C4)nn12,≥14.9 µg/mL
Nc1ccc(Cl)cc1S(=O)(=O)n1cccc1C(=O)OCC1CC1,39 µM
CCc1c(Cc2cc(C)cc(C)c2)n(COC/C=C/c2ccccc2)c(=O)[nH]c1=O,32 µM
NCCCC[C@H](COC(N)=O)NC(=O)CN(CCCCN)C(=O)OC[C@@H](N)CCCNc1c(N)c(=O)c1=O,1600 µM
COc1c(N2CCN(CN3C(=O)C(=Nc4ccc(S(=O)(=O)Nc5nc(C)cc(C)n5)cc4)c4cc(F)ccc43)C(C)C2)c(F)cc2c(=O)c(C(=O)O)cn(C3CC3)c12,166.8 µM
Cc1nc2c(c(C)c(C)n2Cc2ccncc2)c(-c2ccc(Cl)cc2)c1C(OC(C)(C)C)C(=O)O,>203 µM
N#CCN1C(=O)N(Cc2ccccc2)S(=O)(=O)n2cccc21,187 µM
Cc1nc2c(c(C)c(C)n2CC(=O)O)c(-c2ccc(Cl)cc2)c1[C@H](OC(C)(C)C)C(=O)O,>217.9 µM
Cc1cc(C)nc(NS(=O)(=O)c2ccc(N=C3C(=O)N(CN4CCN(c5ccc([N+](=O)[O-])cc5)CC4)c4ccc(F)cc43)cc2)n1,44.12 µM
COc1ccc(CCN2C(=O)/C(=C\c3cc(OC)c(OC)c(OC)c3)N(CCc3ccc(OC)c(OC)c3)C2=S)cc1OC,13.45 µg/mL
Cc1ccc(NC(=O)CSc2ncnn2-c2ccc(Cl)cc2Cl)c(Br)c1,184 µM
COc1ccc(CCN2C(=O)/C(=C\c3ccccc3-c3ccco3)N(CCc3ccc(OC)c(OC)c3)C2=S)cc1OC,17.3 µg/mL
Cc1cc(-c2ccc(C#N)cc2)cc(Cl)c1Oc1nc(Nc2ccc(C#N)cc2)nc2ccsc12,142.7 µM
CC(C)[C@H](NC(=O)c1ccccc1)C(=O)N/N=C/c1c(F)cccc1F,>348 µM
C/C=C(\C)C(=O)O[C@H]1[C@H](O)[C@@]23C(CC1(C)C)[C@]1(CCC4[C@@]5(C)CC[C@H](O[C@@H]6O[C@H](CO)[C@@H](O)[C@H](O[C@@H]7O[C@H](CO)[C@H](O)[C@H](O)[C@H]7O[C@@H]7O[C@@H](C)[C@H](O)[C@@H](O)[C@H]7O)[C@H]6O[C@@H]6O[C@H](CO)[C@H](O)[C@H](O)[C@H]6O)C(C)(C)C5CC[C@@]4(C)[C@]1(C)C[C@H]2O)O[C@@H]3O,<150 µg/mL
N#Cc1ccc(Nc2nc(Oc3c(F)cc(-c4ccc(C#N)cc4)cc3F)c3sccc3n2)cc1,78.6 µM
COc1ccc(CCN2C(=O)/C(=C\c3ccc(N(C)C)cc3)N(CCc3ccc(OC)c(OC)c3)C2=S)cc1OC,17.7 µg/mL
Nc1cc2c(=O)c(C(=O)O)cn(C3CC3)c2cc1N1CCN(c2ccccn2)CC1,4.19 µM
O=C1N(Cc2ccccc2)c2cccn2S(=O)(=O)N1Cc1cccc(F)c1,>324 µM
CC1=C(C(=O)Nc2ccccc2C)C2=NN=C(N)C2C(=O)N1,83.3 µg/mL
COc1cc(Oc2nc(Nc3ccc(C#N)cc3)nc3ccsc23)ccc1-c1ccc(C#N)cc1,246.1 µM
N#Cc1cccn1S(=O)(=O)c1cc(Cl)ccc1N,13 µM
Brc1cccc(-c2nnc3sc(CC45CC6CC(CC(C6)C4)C5)nn23)c1,>125 µg/mL
O=C1N(Cc2ccc(Cl)cc2Cl)c2cccn2S(=O)(=O)N1Cc1cccc(Cl)c1,>265 µM
CC(C)[C@H](NC(=O)c1ccccc1)C(=O)N/N=C/c1ccccc1F,>366 µM
Cc1c(O)cccc1C(=O)N[C@@H](Cc1ccccc1)[C@H](O)CN(CC(C)C)S(=O)(=O)c1ccc2nc(N)sc2c1,69.18 µM
O=C1CSC(c2c(Cl)cccc2Cl)N1c1ccccn1,>14.7 µM
COc1cc2c(c(O)c1OC)-c1c(cc(OC)c(OC)c1O)C[C@H](C)[C@H](C)C2,205 µM
Cc1cc(C)nc(NS(=O)(=O)c2ccc(N=C3C(=O)N(CN4CCN(c5ccc([N+](=O)[O-])cc5)CC4)c4ccccc43)cc2)n1,42.62 µM
CCc1c(Cc2cc(C)cc(C)c2)n(COC2C=CCCC2)c(=O)[nH]c1=O,31 µM
CCNC(=O)c1cccn1S(=O)(=O)c1cc(Cl)ccc1[N+](=O)[O-],16.6 µM
Clc1ccc(-c2nnc3sc(CC45CC6CC(CC(C6)C4)C5)nn23)cc1,>125 µg/mL
CCCc1c(Cc2cc(C)cc(C)c2)n(COC/C(C)=C/c2ccccc2)c(=O)[nH]c1=O,28 µM
Nc1cc2c(=O)c(C(=O)O)cn(C3CC3)c2cc1N1CCN(c2ccc3ccccc3n2)CC1,0.2 µM
Cc1cc(C)nc(NS(=O)(=O)c2ccc(N=C3C(=O)N(CN4CCN(c5cc6c(cc5F)c(=O)c(C(=O)O)cn6C5CC5)CC4)c4ccc(F)cc43)cc2)n1,119 µM
N#CCN1C(=O)N(Cc2cccc(F)c2)S(=O)(=O)n2cccc21,187 µM
Cc1cc(C#CCCO)cc(C)c1Oc1ccnc(Nc2ccc(C#N)cc2)n1,3.555 µM
O=C1N(Cc2ccccc2Cl)c2cccn2S(=O)(=O)N1Cc1cccc(F)c1,262 µM
C/C=C(\C)C(=O)O[C@H]1[C@H](OC(=O)/C(C)=C/C)[C@@]23C(CC1(C)C)[C@]1(CCC4[C@@]5(C)CC[C@H](O[C@@H]6O[C@H](CO)[C@@H](O)[C@H](O[C@@H]7O[C@H](CO)[C@H](O)[C@H](O)[C@H]7O[C@@H]7O[C@@H](C)[C@H](O)[C@@H](O)[C@H]7O)[C@H]6O[C@@H]6O[C@H](CO)[C@H](O)[C@H](O)[C@H]6O)C(C)(C)C5CC[C@@]4(C)[C@]1(C)C[C@H]2OC(C)=O)O[C@@H]3O,<150 µg/mL
COc1ccc(N2CCN(CN3C(=O)C(=Nc4ccc(S(=O)(=O)Nc5nc(C)cc(C)n5)cc4)c4cc(F)ccc43)CC2)cc1,43.32 µM
O=C(OC1CCCC1)c1cccn1S(=O)(=O)c1cc(Cl)ccc1[N+](=O)[O-],11 µM
Cc1nc2c(c(C)c(C)n2CC2C(=O)c3ccccc3C2=O)c(-c2ccc(Cl)cc2)c1C(OC(C)(C)C)C(=O)O,>179 µM
Cc1cn([C@H]2C[C@H](N=[N+]=[N-])[C@@H](CO)O2)c(=O)[nH]c1=O,42.9 µg/mL
CNc1nc2ccc(S(=O)(=O)N(CC(C)C)C[C@@H](O)[C@H](Cc3ccccc3)NC(=O)O[C@H]3CCOC3)cc2s1,<100 µM
COc1c(N2CCN(CN3C(=O)C(=Nc4ccc(S(=O)(=O)Nc5nc(C)cc(C)n5)cc4)c4ccccc43)C(C)C2)c(F)cc2c(=O)c(C(=O)O)cn(C3CC3)c12,151.6 µM
Clc1cccc(-c2nnc3sc(CC45CC6CC(CC(C6)C4)C5)nn23)c1,>125 µg/mL
Cc1cn([C@H]2C[C@H](N=[N+]=[N-])[C@@H](CO)O2)c(=O)[nH]c1=O,>100 µM
Cc1cccc(-c2nnc3sc(CC45CC6CC(CC(C6)C4)C5)nn23)c1,≥10.9 µg/mL
CCOP(=O)(CC[C@]1(C(F)(F)F)CC[C@H](n2cnc3c(N)ncnc32)C1)OCC,98 µM
Cc1ccccc1-c1nnc2sc(CC34CC5CC(CC(C5)C3)C4)nn12,≥11.5 µg/mL
CCOP(=O)(CC[C@]1(C(F)(F)F)CC[C@H](n2cnc3c(Cl)nc(N)nc32)C1)OCC,>100 µM
CNc1nc2ccc(S(=O)(=O)N(CC(C)C)C[C@@H](O)[C@H](Cc3ccccc3)NC(=O)O[C@H]3CO[C@H]4OCC[C@H]43)cc2s1,70.79 µM
CC(C)[C@@H](NC(=O)c1ccccc1)C(=O)N/N=C/c1c(F)cccc1Cl,>332 µM
CN1C=C(C(=O)O)Cc2ccc(N3CCN(c4nc5ccccc5s4)CC3)nc21,26.33 µM
Cc1cc(Oc2nc(Nc3ccc(C#N)cc3)nc3ccsc23)ccc1-c1ccc(C#N)cc1,187.3 µM
CC1=C(C(=O)Nc2ccc(Cl)c(Cl)c2)C2=NN=C(N)C2C(=O)N1,71.08 µg/mL
C/C=C(\C)C(=O)O[C@H]1[C@H](OC(=O)CC)[C@@]23C(CC1(C)C)[C@]1(CCC4[C@@]5(C)CC[C@H](O[C@@H]6O[C@H](CO)[C@@H](O)[C@H](O[C@@H]7O[C@H](CO)[C@H](O)[C@H](O)[C@H]7O[C@@H]7O[C@@H](C)[C@H](O)[C@@H](O)[C@H]7O)[C@H]6O[C@@H]6O[C@H](CO)[C@H](O)[C@H](O)[C@H]6O)C(C)(C)C5CC[C@@]4(C)[C@]1(C)C[C@H]2OC(C)=O)O[C@@H]3O,<150 µg/mL

A second listing of 6 rows from above:

SMILES,value
COc1cc(Oc2nc(Nc3ccc(C#N)cc3)nc3ccsc23)ccc1-c1ccc(C#N)cc1,246.1 µM
CCNC(=O)c1cccn1S(=O)(=O)c1cc(Cl)ccc1[N+](=O)[O-],16.6 µM
CCCc1c(Cc2ccccc2)n(COCC2CC=CCC2)c(=O)[nH]c1=O,34 µM
CC(C)[C@@H](NC(=O)c1ccccc1)C(=O)N/N=C/c1c(F)cccc1Cl,>332 µM
N#Cc1ccc(Nc2nc(Oc3c(F)cc(-c4ccc(C#N)cc4)cc3F)c3sccc3n2)cc1,78.6 µM
Cc1cc(C)nc(NS(=O)(=O)c2ccc(N=C3C(=O)N(CN4CCN(c5ccc([N+](=O)[O-])cc5)CC4)c4ccc(F)cc43)cc2)n1,44.12 µM